{"sequences": {"note": "Sequences of proteins named here, by UniProt entry; tags and fusion partners are left off. Residues count along the entry.", "UniProt Q9WMX2, 2420-3010 limits assumed": "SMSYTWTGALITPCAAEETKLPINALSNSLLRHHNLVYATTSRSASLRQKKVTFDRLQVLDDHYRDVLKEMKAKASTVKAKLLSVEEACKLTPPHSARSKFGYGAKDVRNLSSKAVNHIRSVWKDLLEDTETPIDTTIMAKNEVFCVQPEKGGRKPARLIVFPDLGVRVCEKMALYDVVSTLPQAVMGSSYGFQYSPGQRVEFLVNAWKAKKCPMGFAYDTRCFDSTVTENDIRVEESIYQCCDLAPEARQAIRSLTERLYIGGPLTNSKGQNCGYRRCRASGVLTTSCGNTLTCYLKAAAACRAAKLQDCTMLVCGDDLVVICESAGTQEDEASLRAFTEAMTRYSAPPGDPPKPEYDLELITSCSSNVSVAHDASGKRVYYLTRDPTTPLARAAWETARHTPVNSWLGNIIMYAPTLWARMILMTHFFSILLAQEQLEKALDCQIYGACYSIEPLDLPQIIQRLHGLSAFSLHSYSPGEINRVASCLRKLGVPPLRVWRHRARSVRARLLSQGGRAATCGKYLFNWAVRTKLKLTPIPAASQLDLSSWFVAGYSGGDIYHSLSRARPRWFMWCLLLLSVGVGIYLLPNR"}, "source": "patent US20070219212A1", "about": "“Pyranouidole Derivatives and the Use Thereof for the Treatment of Hepatitis C Virus Infection or Disease” (priority 2004, published 2007)", "key": {"[1]": {"biological_target": "BB7 RNA-dependent RNA polymerase hepatitis C virus protein (Con1 HCV sequence) (Hepatitis C virus genotype 1b, UniProt Q9WMX2)", "test": "Hepatitis C polymerase (BB7) inhibition", "format": "biochemical", "settings": "read-out: BB7 IC50; BB7 (Con1) NS5B", "text": "For purposes of this invention, the term “BB7” denotes an RNA-dependent RNA polymerase hepatitis C virus protein sequence which is derived from HCV replicon. A discussion of BB7 and related technology can be found in Blight, K. et al. (2000) Science 290:1972-1974. BB7 can be licensed from Apath, LLC (893 North Warson Road, Saint Louis Mo. 63141, USA). BB7 is also referred to as Con1 HCV sequence and discussions of Con1 can be found in the following references: Lohmann, V. et al. (1999) Science 285:110-113; Pietschmann, T. et al. (2001) J. Virol. […]:1252-1264; Lohmann, V. et al. (2001) J. Virol. 75:1437-1449.\n(§1) The ability of the compounds of the present invention to inhibit Hepatitis C Polymerase was established by the following experimental procedure:\n(§2) • 0.5M Na Phosphate buffer. Per liter, weigh 134 gr Na2HPO4.7H2O, add water to 900 ml. Adjust pH to 7.0 with phosphoric acid. Top off with water to 1 L. • Dilute nucleotides 1:1000 to 10 μM (GTP and CTP) or 1:100 to 100 μM (ATP and UTP) into RNase free water. Procedure: • (1) Compounds 10 μl at […] in 15% dimethylsulfoxide (DMSO) When starting from 100 μg/ml compound stock in 1% DMSO: Dispense 5 μl 30% DMSO per well Dispense 5 μl compound (100 μg/ml) per well. When starting from 50 μg/ml compound stock in 15% DMSO: Add 10 μl compound per well.\nAdd 20 μl enzyme mix into each well of the assay plate. […]"}, "[2]": {"biological_target": "NS5B from the BK strain (genotype 1b) (Hepatitis C virus genotype 1b, UniProt P26663)", "test": "Hepatitis C polymerase (NS5B, BK strain) inhibition, radioactive filter assay", "settings": "read-out: BK IC50; NS5B BK strain (genotype 1b)", "text": "as §1\nNS5B from the BK strain (genotype 1b) is expressed in E coli as a protein in which the 21 C-terminal amino acids are replaced with a short linker and a hexahistidine tag (GSHHHHHH). The purified protein is mixed with radioactive nucleotides and allowed to replicate a heteropolymeric RNA substrate, primed by an endogenous short hairpin, resulting in an approximately 760 nt product. The radioactive product is captured on a filter and quantitated after removal of the unincorporated nucleotides.\nas §2\nAdd 20 μl enzyme mix into each well of the assay plate. Incubate compound and enzyme at room temperature for 15 minutes • (3) Template mix—prepare ahead […]"}}, "data": [{"smiles": "CCCC1(CC(=O)O)OCCc2c1[nH]c1c(C)c(OCCO)cc(C#N)c21", "note": "(centres unmarked)", "values": [{"measurement": "IC50", "setting": "[1]", "result": "< 500", "unit": "nM"}, {"measurement": "IC50", "setting": "[2]", "result": "< 500", "unit": "nM"}]}]}
